Laboratory results from US20080272062A1, “BROAD SPECTRUM ANTIMICROBIAL PURIFICATION DEVICES AND METHODS FOR PURIFYING FLUIDS” (WATER VISIONS INTERNATIONAL, INC., priority 2006, published 2008).

Experiment: TOC and TOX of water treated with chlorhexidine dihydrate filled cell

Structure (SMILES): N=C(NCCCCCCNC(=N)NC(=N)Nc1ccc(Cl)cc1)NC(=N)Nc1ccc(Cl)cc1.O.O [Chlorhexidine dihydrate, chlorhexidine dihydrate]
- TOC (total organic content) of treated water (20 L, Run 1): 36 mg/L
- TOX (total halides) of treated water (20 L, Run 1): 2.6 mg/L
- TOX (total halides) of treated water (20 L, Run 2): 2.7 mg/L
- TOC (total organic content) of treated water (40 L, Run 1): 27 mg/L
- TOX (total halides) of treated water (40 L, Run 1): <2 mg/L
- TOX (total halides) of treated water (40 L, Run 2): 2.6 mg/L
- TOC (total organic content) of treated water (60 L, Run 1): 23 mg/L
- TOX (total halides) of treated water (60 L, Run 1): 3.2 mg/L
- TOX (total halides) of treated water (60 L, Run 2): <2 mg/L
- TOC (total organic content) of treated water (80 L, Run 1): 20 mg/L
- TOX (total halides) of treated water (80 L, Run 1): 3.2 mg/L
- TOX (total halides) of treated water (80 L, Run 2): <2 mg/L
